# Potato spindle tuber viroid, stem 15: variant abundance in plants

From the data files of Wu et al. 2024, doi:10.1371/journal.ppat.1012142.

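Three N. benthamiana plants were inoculated with the whole mutant pool. Progeny were sequenced from the inoculated region (day 5), the margin of the inoculated leaf (day 10) and systemic leaves (day 12).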

The pool varies stem 15 of the PSTVd intermediate strain in the pattern CUGGAGCGAUNGNNUNNG; wild type is CUGGAGCGAUCGCUUCGG (upper and lower strand joined, each 5' to 3', the first 9 letters being the upper strand).

Numbers give reads per thousand; 0 = not seen among the reads, higher = more abundant. Each value is the mean of three plants. "Pool" is the share in the plasmid pool used as inoculum, on the same scale. The inoculated region was read from the minus strand, the other sites from the plus strand. Samples held 36,693 to 63,082 reads, so the smallest values rest on one or two reads.

| sequence | pool | inoculated region | leaf margin | systemic leaves |
|---|---|---|---|---|
| CCGGAGCGAUGGUCUGAG | 0.0162 | 0.00620 | 0 | 0 |
| CUCGAGCGAUGGUUUACG | 0.0162 | 0 | 0 | 0 |
| CUGGAGCGAUAGAAUGCG | 0.873 | 0.252 | 0.0138 | 0 |
| CUGGAGCGAUAGCAUAGG | 0.760 | 0.315 | 0.0197 | 0 |
| CUGGAGCGAUAGCAUCUG | 0.824 | 0.266 | 0.00908 | 0 |
| CUGGAGCGAUAGCGUGCG | 0.889 | 0.305 | 0.0541 | 0 |
| CUGGAGCGAUAGCGUGGG | 0.840 | 0.281 | 0.0122 | 0 |
| CUGGAGCGAUAGCUUUUG | 0.808 | 0.280 | 0.0664 | 0 |
| CUGGAGCGAUAGGCUGCG | 1.08 | 0.381 | 0.0372 | 0 |
| CUGGAGCGAUAGGCUGGG | 1.02 | 0.401 | 0.0397 | 0 |
| CUGGAGCGAUAGGGUCGG | 1.10 | 0.326 | 0.0251 | 0 |
| CUGGAGCGAUAGUAUCAG | 0.840 | 0.240 | 0.0302 | 0 |
| CUGGAGCGAUAGUAUCCG | 0.954 | 0.222 | 0.0282 | 0 |
| CUGGAGCGAUAGUAUUCG | 0.711 | 0.214 | 0.0213 | 0.429 |
| CUGGAGCGAUAGUCUAAG | 0.792 | 1.72 | 0.290 | 0 |
| CUGGAGCGAUAGUCUGUG | 0.873 | 0.543 | 0.0345 | 0 |
| CUGGAGCGAUAGUGUCAG | 0.905 | 0.214 | 0.0488 | 0 |
| CUGGAGCGAUAGUUUGUG | 0.824 | 0.275 | 0.0312 | 0 |
| CUGGAGCGAUCGAAUAAG | 0.711 | 0.331 | 0.0488 | 0 |
| CUGGAGCGAUCGAAUUUG | 0.695 | 0.302 | 0.0622 | 0 |
| CUGGAGCGAUCGACUUAG | 0.695 | 0.985 | 0.0456 | 0 |
| CUGGAGCGAUCGCAUAAG | 0.873 | 0.301 | 0.0488 | 0 |
| CUGGAGCGAUCGCAUCCG | 1.37 | 0.271 | 0.0388 | 0.0132 |
| CUGGAGCGAUCGCCUCAG | 0.873 | 0.283 | 0.0350 | 0 |
| CUGGAGCGAUCGCUUCUG | 1.07 | 0.651 | 0.409 | 0.219 |
| CUGGAGCGAUCGGAUUUG | 1.08 | 0.602 | 0.0334 | 0 |
| CUGGAGCGAUCGGCUGGG | 0.921 | 0.336 | 0.0282 | 0 |
| CUGGAGCGAUCGGUUAAG | 0.808 | 0.268 | 0.0260 | 0 |
| CUGGAGCGAUCGGUUCGG | 0.695 | 0.369 | 0.0372 | 0.0332 |
| CUGGAGCGAUCGUCUUAG | 0.824 | 2.50 | 0.594 | 0.557 |
| CUGGAGCGAUGGAAUAAG | 0.857 | 0.227 | 0.0213 | 0 |
| CUGGAGCGAUGGACUGCG | 0.889 | 0.327 | 0.0235 | 0 |
| CUGGAGCGAUGGAGUAAG | 1.00 | 0.260 | 0.0229 | 0 |
| CUGGAGCGAUGGAUUAAG | 0.711 | 0.271 | 0.0191 | 0 |
| CUGGAGCGAUGGAUUCGG | 0.776 | 0.392 | 0.0414 | 0.00660 |
| CUGGAGCGAUGGAUUGAG | 0.840 | 0.307 | 0.0320 | 0 |
| CUGGAGCGAUGGCCUAAG | 0.937 | 0.249 | 0 | 0 |
| CUGGAGCGAUGGCGUCGG | 0.614 | 0.327 | 0.0594 | 0 |
| CUGGAGCGAUGGCGUGGG | 0.954 | 0.259 | 0.0441 | 0 |
| CUGGAGCGAUGGGAUCCG | 1.10 | 0.286 | 0.0378 | 0 |
| CUGGAGCGAUGGGUUAGG | 0.954 | 0.288 | 0.0229 | 0 |
| CUGGAGCGAUGGUUUUUG | 0.792 | 0.263 | 0.0318 | 0 |
| CUGGAGCGAUUGACUCAG | 0.792 | 1.39 | 0.0320 | 0 |
| CUGGAGCGAUUGACUUCG | 1.07 | 1.54 | 0.622 | 0.437 |
| CUGGAGCGAUUGAGUACG | 0.808 | 0.320 | 0.0372 | 0 |
| CUGGAGCGAUUGAGUCGG | 0.695 | 0.322 | 0.0265 | 0 |
| CUGGAGCGAUUGAGUCUG | 0.695 | 0.182 | 0.00908 | 0 |
| CUGGAGCGAUUGCAUCGG | 0.954 | 0.178 | 0.0229 | 0 |
| CUGGAGCGAUUGCAUGGG | 0.727 | 0.326 | 0.0563 | 0 |
| CUGGAGCGAUUGCAUGUG | 0.921 | 0.264 | 0.0472 | 0 |
| CUGGAGCGAUUGCGUGUG | 0.792 | 0.276 | 0.0282 | 0 |
| CUGGAGCGAUUGCUUAGG | 2.15 | 1.23 | 0.0418 | 0 |
| CUGGAGCGAUUGCUUCCG | 1.05 | 0.287 | 0.0175 | 0 |
| CUGGAGCGAUUGCUUGUG | 1.00 | 0.382 | 0.0434 | 0 |
| CUGGAGCGAUUGGAUCAG | 0.889 | 0.208 | 0 | 0 |
| CUGGAGCGAUUGGCUAUG | 0.743 | 0.206 | 0.0754 | 0 |
| CUGGAGCGAUUGGCUCUG | 0.873 | 0.289 | 0.0503 | 0 |
| CUGGAGCGAUUGGUUUGG | 1.84 | 1.68 | 0.0456 | 0.0132 |
| CUGGAGCGAUUGUAUAAG | 0.760 | 1.56 | 0.0556 | 0 |
| CUGGAGCGAUUGUAUUGG | 3.04 | 3.47 | 0.741 | 0.597 |
| CUGGAGCGAUUGUGUUGG | 0.824 | 1.53 | 0.336 | 0 |
| CUGGGGCGAUAGCGUCGG | 0.0162 | 0 | 0 | 0 |
| CUUGAGCGAUAGGGUAAG | 0.0162 | 0 | 0 | 0 |

For reference, wild type rose from 10.2 per thousand in the pool to 285, 367, 312 (inoculated region), 785, 865, 782 (leaf margin) and 854, 898, 915 (systemic leaves). Sequences that differ at fixed positions probably stem from PCR or sequencing errors, and defective variants can be carried along by functional ones.